Pooled drug test results. Numbers come from NIAID ChemDB, via PubChem.

Common to all: growth or infection tests

ECn is the concentration giving n% inhibition of infection, replication or growth.

structure	agent	strain	changes	cell line	method	measure	dose	result
NC(=S)Nc1cccc(OCCCCCOc2ccc(-n3ccnc3)cc2)c1	Hepatitis C virus			Ava5-EG(delta4AB)SEAP	reporter gene / fluorescence	EC50		0.001–1 µM
O=C(NCc1ccccc1-n1cccn1)c1c2n(c(=O)n1-c1ccc(OCC(F)(F)F)cc1)CCN(C(=O)c1ccc(Br)c(Cl)c1)C2	Hepatitis B virus			HepG2.117	PCR	EC50		<0.1 µM
C#CC1(NC(=O)C(=O)c2c(C)c(C(=O)Nc3ccc(F)c(C#N)c3)n(C)c2C)CC(O)C1	Hepatitis B virus			HepG2.2.15	PCR	EC50		0.001–0.0099 µM
NC(=S)Nc1cccc(OCCCCCOc2ccc(-c3ccco3)cc2)c1	Hepatitis C virus			Ava5-EG(delta4AB)SEAP	reporter gene / fluorescence	EC50		0.001–1 µM
COC(=O)[C@H](CCSC)NC(=O)c1ccc(NC[C@@H]([NH3+])CS)cc1-c1ccccc1	Hepatitis D virus			Huh7		EC50		<0.5 µM
COc1ccc(C2C3=C(CC(C)(C)CC3=O)Nc3c(O)cccc3N2C(=O)C(C)C)c2ccccc12	Hepatitis C virus	1b			luciferase / reporter gene / replicon	EC50		0.9 µM
O=C(O)c1cc2c(n(C3CC3)c1=O)-c1cc(Cl)c(OCC3CCO3)cc1S(=O)(=O)C2	Hepatitis A virus			Primary human hepatocytes	antigen / visual reading / absorbance	EC50		0.1–0.5 µM
Cc1ccc2ccccc2c1OCCCCCOc1cccc(NC(N)=S)c1	Hepatitis C virus			Ava5-EG(delta4AB)SEAP	reporter gene / fluorescence	EC50		0.001–1 µM
O=C(NC1(c2ccccc2)CC1)c1c2n(c(=O)n1-c1ccccc1)CCN(C(=O)c1ccc(Br)c(Cl)c1)C2	Hepatitis B virus			HepG2.117	PCR	EC50		>5 µM
Nc1nc(=O)c2ncn([C@@H]3O[C@H](CO)[C@@H](O)[C@H]3O)c2c(=O)[nH]1	Hepatitis B virus			2.2.15	antigen	inhibition	10 µM	50%
Cn1nc(C(=O)N2c3cccc(O)c3NC3=C(C(=O)CC(C)(C)C3)C2c2ccc(OCc3ccccc3)cc2F)cc1-c1ccco1	Hepatitis C virus	1b			luciferase / reporter gene / replicon	EC50		1.73 µM
COc1ccc(-n2c(C(=O)NCc3ccc(Cl)c(OC)c3)c3n(c2=O)CCN(C(=O)c2ccc(Br)c(Cl)c2)C3)cc1	Hepatitis B virus			HepG2.117	PCR	EC50		0.5–5 µM
C#C[C@@](CO)(NC(=O)C(=O)c1c(C)c(C(=O)Nc2ccc(F)c(C(F)(F)F)c2)n(C)c1C)C1CC1	Hepatitis B virus			HepG2.2.15	PCR	EC50		0.001–0.0099 µM
O=C(O[C@@H]1Cc2c(O)cc(O)cc2O[C@@H]1c1cc(O)c(O)c(O)c1)c1cc(O)c(O)c(O)c1	Hepatitis B virus				PCR	inhibition	100 µM	71.8%
Cc1c(C(=O)C(=O)NC(C)(C)c2ccc[nH]c2=O)c(C)n(C)c1C(=O)Nc1ccc(F)c(C#N)c1	Hepatitis B virus			HepG2.2.15	PCR	EC50		0.001–0.0099 µM
NC(=S)Nc1ccc2c(c1)Cc1cc(N(Cc3ccccc3)Cc3ccccc3)ccc1-2	Hepatitis C virus			Ava5-EG(delta4AB)SEAP	reporter gene / fluorescence	EC50		0.001–1 µM
O=C(N[C@@H](C(=O)N1CCC[C@H]1c1ncc(-c2ccc(-c3ccc(-c4cnc([C@@H]5CCCN5C(=O)[C@H](NC(=O)C5CC5)c5ccccc5)s4)cc3)cc2)s1)c1ccccc1)C1CC1	Hepatitis C virus	genotype 1b	Y93H+V153M+M202L+M265V	Huh7.5	luciferase / reporter gene	fold resistance		5824
CC1CCC(C(=O)N(c2cc(C#CC(C)(C)C)sc2C(=O)O)C2CCC(O)CC2)CC1	Hepatitis C virus	Con1 (gt 1b)	R422K	Huh7	luciferase	fold resistance		545.8
Cc1cccc(C(=O)N2c3cccc(O)c3NC3=C(C(=O)CC(C)(C)C3)C2c2ccc(OCc3ccccc3F)cc2F)n1	Hepatitis C virus	1b			luciferase / reporter gene / replicon	EC50		0.47 µM
Oc1ccc([C@H]2Oc3cccc(O)c3C(c3c(O)cc(O)c4c3O[C@H](c3ccc(O)c(O)c3)[C@@H](O)C4)[C@H]2O)cc1O	Hepatitis B virus			HepG2.2.15	ELISA / antigen	inhibition	30 µM	68.8%
C#CC1(NC(=O)C(=O)c2c(C)c(C(=O)Nc3ccc(F)c(C#N)c3)n(C)c2C)CCOCC1	Hepatitis B virus			HepG2.2.15	PCR	EC50		0.001–0.0099 µM
O=C(N/C(C(=O)N1CCCCC1)=C(/Cl)c1ccccc1)c1ccccc1	Hepatitis B virus			HepAD38		EC90		12 µM
CC1(C)CC(=O)C2=C(C1)Nc1c(O)cccc1N(C(=O)c1ccc(C#N)o1)C2c1ccc(OCc2ccccc2)cc1F	Hepatitis C virus	1b			luciferase / reporter gene / replicon	EC50		3.36 µM
C#CC1(NC(=O)C(=O)c2c(C)c(C(=O)Nc3ccc(F)c(F)c3)n(C)c2C)CCCCC1	Hepatitis B virus			HepG2.2.15	PCR	EC50		0.001–0.0099 µM
Cc1nc(C(=O)N2c3cccc(O)c3NC3=C(C(=O)CC(C)(C)C3)C2c2ccc(OCc3ccccc3)cc2Cl)c(C)o1	Hepatitis C virus	1b			luciferase / reporter gene / replicon	EC50		1.14 µM
O=C(NC1CC2(C1)CC(c1nc3cc(Cl)ccc3o1)C2)C1CN(Cc2ccccc2)S(=O)(=O)C1	Hepatitis A virus			Primary human hepatocytes	luminescence	EC50		4.44 µM
C[C@H](NC(=O)c1c2n(c(=O)n1-c1ccc(OCC(F)(F)F)cc1)CCN(C(=O)c1ccc(Br)c(Cl)c1)C2)c1ccc(OC(F)F)cc1F	Hepatitis B virus			HepG2.117	PCR	EC50		0.1–0.5 µM
Cc1ccc(C2C3=C(CC(C)(C)CC3=O)Nc3c(O)cccc3N2C(=O)C(C)C)c2ccccc12	Hepatitis C virus	1b			luciferase / reporter gene / replicon	EC50		1.12 µM
Cc1c(C(=O)C(=O)NC(C)(C)c2cnn(C3CC3)c2)c(C)n(C)c1C(=O)Nc1ccc(F)c(C(F)(F)F)c1	Hepatitis B virus			HepG2.2.15	PCR	EC50		0.001–0.0099 µM
COC(=O)N[C@H](C(=O)N1CCCC1c1ncc(-c2ccc(-c3ccc(-c4cnc([C@@H]5CC(C)CN5C(=O)[C@@H](NC(=O)CO)C(C)C)[nH]4)cc3)cc2)[nH]1)C(C)C	Hepatitis C virus	1b		ET	luciferase	EC50		0.0000078 µM

Again, the opening 4 rows:

NC(=S)Nc1cccc(OCCCCCOc2ccc(-n3ccnc3)cc2)c1 ; agent: Hepatitis C virus ; cell line: Ava5-EG(delta4AB)SEAP ; method: reporter gene / fluorescence ; measure: EC50 ; result: 0.001–1 µM
O=C(NCc1ccccc1-n1cccn1)c1c2n(c(=O)n1-c1ccc(OCC(F)(F)F)cc1)CCN(C(=O)c1ccc(Br)c(Cl)c1)C2 ; agent: Hepatitis B virus ; cell line: HepG2.117 ; method: PCR ; measure: EC50 ; result: <0.1 µM
C#CC1(NC(=O)C(=O)c2c(C)c(C(=O)Nc3ccc(F)c(C#N)c3)n(C)c2C)CC(O)C1 ; agent: Hepatitis B virus ; cell line: HepG2.2.15 ; method: PCR ; measure: EC50 ; result: 0.001–0.0099 µM
NC(=S)Nc1cccc(OCCCCCOc2ccc(-c3ccco3)cc2)c1 ; agent: Hepatitis C virus ; cell line: Ava5-EG(delta4AB)SEAP ; method: reporter gene / fluorescence ; measure: EC50 ; result: 0.001–1 µM

Lines come from different laboratories, so protocols vary. Two numbers with a dash give a range or band. Percent inhibition refers to the dose given; in toxicity tests it is the harm to the cells. Fold resistance: result on the changed form divided by that on wild type. Blank or dashed fields: not listed here.